Results as given in patent US10028933B2, “Compositions and methods for inhibiting the growth of multi-drug resistant microbes” (priority 2015, dated 2018).

Test system: P. aeruginosa
Details: AR-13 alone; 24 hour; n=3

NS(=O)(=O)Nc1ccc(-n2nc(C(F)(F)F)cc2-c2ccc3c(ccc4ccccc43)c2)cc1 [AR-13, N-{4-[5-(Phenanthren-2-yl)-3-(trifluoromethyl)-1H-pyrazol-1-yl]phenyl}sulfuric diamide]
reduction of CFU/ml in human CF and non-CF neutrophils infected with P. aeruginosa: about 10 fold
